Measurements: publication PMC6416295

Columns and labels:
[1] = target: HlyU (Vibrio vulnificus MO6-24/O) (UniProt A0A3Q0L222); experiment: EMSA; details: 10 mM Tris-Cl pH 7.5, 50 mM KCl, 5 mM MgCl2, 5% glycerol, 0.1 ug poly(dI-dC) in 20 ul, 5 nM DNA, 25 C, 0.5 h, 6% native PAGE, recombinant protein, residues 1-98, protein details: His6 (pProEX-HTa), label: 32P 5' label on PrtxA-EMSA-R strand, probe letters rebuilt from the primers and the genome
[2] = target: HlyU C30S (Vibrio vulnificus MO6-24/O) (UniProt A0A3Q0L222); experiment: EMSA; details: HlyU 100 nM, 10 mM Tris-Cl pH 7.5, 50 mM KCl, 5 mM MgCl2, 5% glycerol, 0.1 ug poly(dI-dC) in 20 ul, 5 nM DNA, 25 C, 0.5 h, 6% native PAGE, recombinant protein, residues 1-98, protein details: His6 (pProEX-HTa), label: 32P 5' label on PrtxA-EMSA-R strand, probe letters rebuilt from the primers and the genome

## TCAAATAAAATGGCGGGTGTTTTTATTTTCTCTATGTTTTTAAATTGTGAATGTTTTGTGGTTATTCTTACTTTGTTTGCTTTTTGTATTTTTTCGAGTTCATCTTTGTAATTATTAGTTTTTGTTAAATTAGCATTTTCTTTAAATTGTTCTCTATTACCGCTGATGATACTTAAATAAAAGTGAATACATATCAGCGTCAACCCTTCATTGTTGGACATAATTAAATTACTTAGCCGATGTTTATTGCAGCGTTTTTGAAGG (double strand) [PrtxA 264-bp]
[1]; 20 uM random control chemical, HlyU 50 or 100 nM
  binding result: binds
[1]; without CM14
  Kd: 25.2 nM
[2]; 10 uM CM14 (binding less affected than WT)
  binding result: binds
[2]; 10% DMSO
  binding result: binds

The exact form of at least one protein or probe is not confirmed. For some of these results: At least one verdict rests on a figure or table, not on a statement of the authors.
